Consider 1 substance from US4607023 (dated 1986).

The data set in a line: general procedure: hybrid (solid and solution phase) peptide synthesis; Boc-amino acid on 2% crosslinked Merrifield resin; 1% crosslinked p-methyl benzhydrylamine (MBHA) resin for octapeptide; DCCI; DCCI/HOBt for repeat couplings; azide method for fragment couplings. To be noted: coupling step, acetate (HOAc) salt.

For the substance “Boc-Arg-Arg-Ser-Ser-Cys-(Acm)-Phe-Gly-Gly-Arg-Ile-Asp-Arg-Ile-Gly-Ala-Gln-Ser-Gly-Leu-Gly-Cys(Acm)-Asn-Ser-Phe-Ary-Tyr-NH2.6HOAc”, the “final HPLC purity” value is given as 98.3%.
